PubChem BioAssay AID624099 – ICCB-Longwood, 2012
Here is one part, drawn at random, of about 21,000 reagents tested. 497 of all reagents (2.4%) count as active. 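Higher z means weaker E2 silencing; only reporter increases were scored, and knock-downs that hurt cell survival may mask genuine repressor factors.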 Entries without a mark were called inactive. Reagents against one gene are numbered here. Reagent sequences are not shown.

Assay: 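Host factors E2 relies on to silence an HPV18 LCR reporter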 (primary screen)
Cells: human C33A cervical carcinoma cells (HPV-negative) stably expressing BPV1 E2 and an HPV18 LCR luciferase reporter
Reagent: siRNA pool against human genes, 40 nM
Duration: 72 h
Measured: 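HPV18 LCR reporter light per well, converted to plate-wise z-scores that exclude control wells, and averaged over triplicate plates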
Direction: mean z-score and z-score: higher = stronger reporter signal, weaker E2 silencing
Call rule: 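Mean z ≥ 2 together with z ≥ 2 in two or more of the three replicates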

gene knocked down	pool no.	mean z-score	z-score, replicate A	z-score, replicate B	z-score, replicate C
COX5A (cytochrome c oxidase subunit 5A)	1	0.73	0.96	0.63	0.61
GAST (gastrin)	1	0.57	0.52	0.64	0.54
EDRF1 (erythroid differentiation regulatory factor 1)	1	-0.23	-0.28	-0.39	-0.04
MIR1-1HG (MIR1-1 host gene)	1	-0.73	-0.66	-0.87	-0.67
NXPH4 (neurexophilin 4)	1	-0.35	-0.37	-0.53	-0.14
PRLHR (prolactin releasing hormone receptor)	1	0.51	0.64	0.35	0.54
ATP2A2	1	0.86	0.75	0.7	1.13
MAP2K3 (mitogen-activated protein kinase kinase 3)	1	0.2	0.08	0.43	0.09
HNRNPCL1 (heterogeneous nuclear ribonucleoprotein C like 1)	1	-0.95	-0.86	-0.96	-1.03
ZBTB24 (zinc finger and BTB domain containing 24)	1	1.55	1.57	1.49	1.6
SYT9 (synaptotagmin 9)	1	1.05	0.74	0.94	1.46
DYRK4 (dual specificity tyrosine phosphorylation regulated kinase 4)	1	0.35	0.08	0.68	0.29
TWNK (twinkle mtDNA helicase)	1	-1.09	-1.18	-1.31	-0.78
ARPC1B (actin related protein 2/3 complex subunit 1B)	1	0.53	0.23	0.83	0.55
NSUN3 (NOP2/Sun RNA methyltransferase 3)	1	1.29	1.03	1.29	1.56
WDR47 (WD repeat domain 47)	1	-0.68	-0.92	-0.55	-0.57
MTERF2 (mitochondrial transcription termination factor 2)	1	-1.36	-1.34	-1.52	-1.2
RNF182 (ring finger protein 182)	1	-1.03	-1.1	-1.08	-0.9
ATP6V1B2 (ATPase H+ transporting V1 subunit B2)	1	-1.84	-2.06	-1.78	-1.68
DDX3Y (DEAD-box helicase 3 Y-linked)	1	-0.31	-0.42	-0.38	-0.14
ITGB8 (integrin subunit beta 8)	1	-0.28	-0.3	-0.22	-0.32
ARL5A (ARF like GTPase 5A)	1	0.58	0.43	0.79	0.52
TBL1Y (transducin beta like 1 Y-linked)	1	-0.2	-0.58	-0.22	0.2
FMO1 (flavin containing dimethylaniline monoxygenase 1)	1	-0.63	-0.72	-0.75	-0.42
UBTFL6 (UBTF like 6 (pseudogene))	1	-0.14	0.02	0.46	-0.89
WASHC4 (WASH complex subunit 4)	1	0.32	0.33	0.37	0.26
PAGE5 (PAGE family member 5)	1	-1.39	-1.65	-1.58	-0.93
ZNF506 (zinc finger protein 506)	1	-0.32	-0.28	-0.02	-0.65
CDC26 (cell division cycle 26)	1	-0.91	-0.65	-0.87	-1.2
TSPAN9 (tetraspanin 9)	1	-0.08	0.18	-0.33	-0.08
TSPAN9 (tetraspanin 9)	2	1.06	0.77	1.29	1.13
VWDE (von Willebrand factor D and EGF domains)	1	0.6	0.23	0.74	0.82
CRACD (capping protein inhibiting regulator of actin dynamics)	1	-0.9	-1.22	-1.03	-0.46
PRDX6 (peroxiredoxin 6)	1	0.32	0.34	0.26	0.36
KIF14 (kinesin family member 14)	1	-1.2	-1.18	-1.23	-1.18
CERS2 (ceramide synthase 2)	1	-1.02	-0.86	-0.92	-1.29
GRIK5 (glutamate ionotropic receptor kainate type subunit 5)	1	0.03	-0.13	0.06	0.16
REC114 (REC114 meiotic recombination protein)	1	0.39	0.6	0.47	0.11
ZC3H12D (zinc finger CCCH-type containing 12D)	1	-0.72	-0.9	-0.54	-0.71
CIP2A (cellular inhibitor of PP2A)	1	-0.26	0.47	-0.74	-0.5
LOC401485 (retired record)	1	0.62	0.59	0.78	0.49
SLC37A3	1	0.07	0	0.29	-0.07
NCBP1 (nuclear cap binding protein subunit 1)	1	-1.21	-0.86	-1.21	-1.56
LOC400301 (retired record)	1	0.05	0.26	-0.35	0.24
ITGB1BP1 (integrin subunit beta 1 binding protein 1)	1	-1.56	-1.01	-2.09	-1.58
PRPF4 (pre-mRNA splicing tri-snRNP complex factor PRPF4)	1	-0.73	-0.81	-0.8	-0.58
CPNE6 (copine 6)	1	-0.41	-0.27	-0.42	-0.56
POLE (DNA polymerase epsilon, catalytic subunit)	1	-0.79	-0.8	-0.83	-0.73
CDX1 (caudal type homeobox 1)	1	-0.33	-0.71	-0.4	0.12
TRMT2A (tRNA methyltransferase 2A)	1	0.82	0.55	0.63	1.3
EXD2 (exonuclease 3'-5' domain containing 2)	1	0.19	-0.18	0.12	0.64
TADA2B (transcriptional adaptor 2B)	1	-1.14	-1.04	-1.37	-1.01
TPPP2 (tubulin polymerization promoting protein family member 2)	1	1.53	1.74	1.45	1.4
PCDH10 (protocadherin 10)	1	1.11	0.74	1.16	1.42
FAM194C (family with sequence similarity 194 member C)	1	0.29	0.38	0.34	0.16
KIFC3 (kinesin family member C3)	1	1.13	1.07	0.91	1.41
MYBL2 (MYB proto-oncogene like 2)	1	-0.29	-0.2	-0.18	-0.49

5 entries from above, set out differently:
gene knocked down | pool no. | mean z-score | z-score, replicate A | z-score, replicate B | z-score, replicate C
GRIK5 (glutamate ionotropic receptor kainate type subunit 5) | 1 | 0.03 | -0.13 | 0.06 | 0.16
REC114 (REC114 meiotic recombination protein) | 1 | 0.39 | 0.6 | 0.47 | 0.11
ZC3H12D (zinc finger CCCH-type containing 12D) | 1 | -0.72 | -0.9 | -0.54 | -0.71
CIP2A (cellular inhibitor of PP2A) | 1 | -0.26 | 0.47 | -0.74 | -0.5
LOC401485 (retired record) | 1 | 0.62 | 0.59 | 0.78 | 0.49
